Pooled drug test results. Numbers come from NIAID ChemDB, via PubChem.

Shared fields: tests in culture; organism: Mycobacterium tuberculosis

MIC bound: limit read from a one-dose screen.

COc1ccccc1CCNCCNCc1ccccc1F ; read-out: MIC ; result: 50 µM
CCOC(=O)c1cc(C)n(-c2cc(C(=O)OC)ccc2OC)c1C ; read-out: MIC ; strain: H37Rv ; result: >100 µg/mL
NCC[C@H](O)C(=O)N[C@@H]1C[C@H](N)[C@@H](O[C@H]2O[C@H](CN)[C@@H](O)[C@H](O)[C@H]2O)[C@H](O)[C@H]1O[C@H]1O[C@H](CO)[C@@H](O)[C@H](N)[C@H]1O ; read-out: MIC ; method: broth dilution / resazurin ; strain: MDR24 ; result: 2 µg/mL
NC[C@H]1O[C@H](O[C@H]2[C@H](O)[C@@H](O[C@H]3O[C@H](CO)[C@@H](O)[C@H](N)[C@H]3O)[C@H](N)C[C@@H]2N)[C@H](O)[C@@H](O)[C@@H]1O ; read-out: MIC ; strain: TN718 (AY) ; result: >256 µg/mL
COc1cc(C(=O)NCC(=O)NN)cc(OC)c1OC ; read-out: inhibition ; method: BACTEC ; strain: H37Rv ; dose: 12.5 µg/mL ; result: 10%
CCCCC(CC)CN1CN(CC(CC)CCCC)CC(C)(NCCNCCO)C1 ; read-out: MIC ; result: 12.5 µM
CC(C)c1ccc2c(c1)CC[C@H]1[C@](C)(CNCCNC3CCCCCCC3)CCC[C@]21C ; read-out: MIC ; result: 25 µM
CO[C@H]1/C=C/O[C@@]2(C)Oc3c(C)c(O)c4c(O)c(c(/C=N/N5CCN(Cc6ccccc6)CC5)c(O)c4c3C2=O)NC(=O)/C(C)=C\C=C\[C@H](C)[C@H](O)[C@@H](C)[C@@H](O)[C@@H](C)[C@H](OC(C)=O)[C@@H]1C ; read-out: MIC ; strain: PAS-R ; result: 0.05 µg/mL
Clc1ccccc1CCNCCNC(c1ccccc1)c1ccccc1 ; read-out: MIC ; result: 50 µM
O=C(CCN1CCCCC1)c1ccccc1 ; read-out: MIC ; strain: H37Rv ; result: 50 µg/mL
CC[C@H]1OC(=O)[C@H](C)[C@@H](O[C@H]2C[C@@](C)(OC)[C@@H](O)[C@H](C)O2)[C@H](C)[C@@H](O[C@@H]2O[C@H](C)C[C@H](N(C)C)[C@H]2O)[C@](C)(O)C[C@@H](C)CN(C)[C@H](C)[C@@H](O)[C@]1(C)O ; read-out: MIC ; strain: ATCC 35828 ; result: >8 µg/mL
O=[N+]([O-])c1cccc(S(=O)(=O)Oc2ccccc2)c1 ; read-out: MIC ; strain: H37Rv ; result: 50 µg/mL
CC1=C(C)C(=O)C(CC2=C(C)C(=O)C(C)=C(C)C2=O)=C(C)C1=O ; read-out: MIC ; strain: RMP-R ; result: 4 µg/mL
C=CCN(CCNC(C)Cc1ccc(Cl)cc1)C1CCCC1 ; read-out: MIC ; result: 50 µM
O=C(O)COCc1ccccc1 ; read-out: MIC ; strain: H37Rv ; result: 100 µg/mL
Fc1ccc(CCNCCNCCc2ccc(Cl)cc2Cl)cc1 ; read-out: MIC ; result: 25 µM
CO[C@H]1/C=C/O[C@@]2(C)Oc3c(C)c(O)c4c(O)c(c(/C=N/N5CCN(C/C=C/c6ccccc6)CC5)c(O)c4c3C2=O)NC(=O)/C(C)=C\C=C\[C@H](C)[C@H](O)[C@@H](C)[C@@H](O)[C@@H](C)[C@H](OC(C)=O)[C@@H]1C ; read-out: MBC ; strain: 9 (rifampin-resistant) ; result: 0.1 µg/mL
CC(=O)NC(=S)NC(C)=O ; read-out: MIC ; strain: H37Rv ; result: >100 µg/mL
CCCCCCCCCCCNCCNC1CCCC1 ; read-out: MIC ; result: 50 µM
O=C(Nc1ccccc1)c1cc2ccccc2cc1O ; read-out: MIC ; strain: H37Rv ; result: >3.12 µg/mL
CC(=O)OCC1OC(c2[nH]nc3c(Cl)ncnc23)C(OC(C)=O)C1OC(C)=O ; read-out: MIC bound ; method: BACTEC ; strain: H37Rv ; result: >12.5 µg/mL
CCOC(=O)Nc1cc(NNc2cc(NC(=O)OCC)nc(N)c2[N+](=O)[O-])c([N+](=O)[O-])c(N)n1 ; read-out: EC50 ; strain: H37Rv ; result: >12.5 µg/mL
ON=C1c2ccccc2-c2ccccc21 ; read-out: MIC ; strain: H37Rv ; result: >100 µg/mL
c1ccc([C@H]2C[C@@H]2NCCNC2CCCCCCC2)cc1 ; read-out: MIC ; result: 25 µM
NC1CCN(c2nc3c(cc2F)c(=O)c(C(=O)O)cn3-c2ccc(F)cc2F)C1 ; read-out: MBC ; strain: ATCC 35827 ; result: >8 µg/mL
CCOC(=O)Nc1cc(NC(C)C(=O)c2ccccc2)c([N+](=O)[O-])cn1 ; read-out: inhibition ; strain: H37Rv ; dose: 12.5 µg/mL ; result: 0%
O=C1CC(c2ccccc2)Oc2cc(I)ccc21 ; read-out: inhibition ; strain: H37Rv ; dose: 12.5 µg/mL ; result: 20%
CC(C)(C)Cc1cssc1=S ; read-out: inhibition ; method: BACTEC ; strain: H37Rv ; dose: 12.5 µg/mL ; result: 17%
CO[C@H]1/C=C/O[C@@]2(C)Oc3c(C)c(O)c4c(=O)c(c5oc6cc(N7CCN(CC(C)C)CC7)cc(=O)c6nc5c4c3=C2O)NC(=O)/C(C)=C\C=C\[C@H](C)[C@H](O)[C@@H](C)[C@@H](O)[C@@H](C)[C@H](OC(C)=O)[C@@H]1C ; read-out: MBC ; strain: 2219 (rifampin-resistant) ; result: 0.2 µg/mL
CC[C@H]1OC(=O)[C@H](C)[C@@H](O[C@H]2C[C@@](C)(OC)[C@@H](O)[C@H](C)O2)[C@H](C)[C@@H](O[C@@H]2O[C@H](C)C[C@H](N(C)C)[C@H]2O)[C@](C)(O)C[C@@H](C)C(=O)[C@H](C)[C@@H](O)[C@]1(C)O ; read-out: MIC ; strain: ATCC 35826 ; result: >8 µg/mL
O=C1C2C3CCC(O3)C2C(=O)N1c1nccs1 ; read-out: MIC bound ; method: BACTEC ; strain: H37Rv ; result: >12.5 µg/mL
OCCCCCNCCNCc1ccccc1Sc1ccccc1CO ; read-out: MIC ; result: 12.5 µM
CCOC(=O)CCC1(C(=O)OCC)Oc2ccc(Cl)cc2C1=O ; read-out: MIC bound ; method: BACTEC ; strain: H37Rv ; result: >12.5 µg/mL
C[C@H](NCCNCCc1ccc(Cl)cc1Cl)C1CCCCC1 ; read-out: MIC ; result: 50 µM
C[C@@H](NCCNCCC(c1ccccc1)c1ccccc1)C1CCCCC1 ; read-out: MIC ; result: 6.25 µM
NC1CCN(c2c(F)cc3c(=O)c(C(=O)O)cn(C4CC4)c3c2Cl)C1 ; read-out: MBC ; strain: ATCC 35823 ; result: 0.25 µg/mL
CC1=CCC(=O)O1 ; read-out: MIC ; strain: H37Rv ; result: >100 µg/mL
COC(=O)c1nc(N)[nH]c(=O)c1-c1ccc(Cl)cc1 ; read-out: MIC bound ; method: BACTEC ; strain: H37Rv ; result: >12.5 µg/mL
COC(=O)C1CC(c2ccccc2)Nc2cc(C)ccc21 ; read-out: MIC ; strain: H37Rv ; result: 25 µg/mL
[O-][n+]1c2ccccc2nc2cc(Cl)ccc21 ; read-out: MIC ; strain: H37Rv ; result: 6.25 µg/mL
C=CC(C)NCc1cc(Nc2ccnc3cc(Cl)ccc23)ccc1O.Cl ; read-out: MIC ; strain: H37Rv ; result: >100 µg/mL
O=C(Nc1ccc(C2=NCCN2)cc1)c1cccc(C(=O)Nc2ccc(C3=NCCN3)cc2)n1 ; read-out: inhibition ; method: resazurin ; strain: H37Rv ; dose: 6.25 µg/mL ; result: 74%
CC(CCc1ccccc1)NCCNC[C@]1(C)CCC[C@]2(C)c3ccc(C(C)C)cc3CC[C@@H]12 ; read-out: MIC ; result: 12.5 µM
COc1ccc(CSC(=S)Nc2cc(Cl)c(Cl)cc2Cl)cc1 ; read-out: MIC ; method: BACTEC ; strain: H37Rv ; result: 64 µg/mL
CCOC(=O)Nc1cc2oc(-c3ccc(Cl)cc3)nc2c(N(CCc2ccccc2)Cc2ccccc2)n1 ; read-out: EC50 ; strain: H37Rv ; result: >12.5 µg/mL
O=C(/C=C/c1ccccc1)c1cccc2ccccc12 ; read-out: EC50 ; result: >12.5 µg/mL
COc1nc(OC)n(C)c(=O)c1OP(=O)(OC)OC ; read-out: inhibition ; method: resazurin ; strain: H37Rv ; dose: 6.25 µg/mL ; result: 44%
N[C@H](C(=O)O)[C@@H](O)c1ccccc1 ; read-out: MIC ; strain: H37Rv ; result: >100 µg/mL
CC[C@@]1(O)CC2CN(CCc3c([nH]c4ccccc34)[C@](C(=O)OC)(c3cc4c(cc3OC)N(C=O)[C@H]3C45CCN4CC=C[C@](CC)(C[C@@]3(O)C(=O)OC)[C@@H]45)C2)C1.O=S(=O)(O)O ; read-out: MIC ; method: BACTEC ; strain: H37Rv ; result: ≥12.5 µg/mL
CC1CC(C)CN(CCNCCC(c2ccccc2)c2ccccc2)C1 ; read-out: MIC ; result: 25 µM
CC(=O)OC/C=C/COC(C)=O ; read-out: MIC ; strain: H37Rv ; result: >100 µg/mL
C[n+]1c(-c2ccc(/C=N/NC(=O)c3ccc(C(=O)N/N=C/c4ccc(-c5cn6ccccc6[n+]5C)cc4)cc3)cc2)cn2ccccc21 ; read-out: inhibition ; method: BACTEC ; strain: H37Rv ; dose: 12.5 µg/mL ; result: 97%
COc1ccc(CCNCCNCc2ccc(OC)cc2OC)cc1 ; read-out: MIC ; result: 12.5 µM
COc1ccc(C2CC(=O)c3cc(C(=O)O)ccc3O2)cc1 ; read-out: EC50 ; strain: H37Rv ; result: >12.5 µg/mL
O=C(O)C(c1ccccc1)c1ccccc1 ; read-out: MIC ; strain: H37Rv ; result: >100 µg/mL
CCOC(=O)N(c1ccccc1)c1cc(Cl)c([N+](=O)[O-])c(N)n1 ; read-out: EC50 ; strain: H37Rv ; result: >12.5 µg/mL
O=C(CC(=O)c1ccccc1)Nc1ccc(NS(=O)(=O)c2cccc(NCS(=O)(=O)[O-])c2)cc1.[K+] ; read-out: MIC ; strain: H37Rv ; result: >100 µg/mL
CCCCCCCCCCCCCCCCNc1ccc(CNCCNC2CCCCCCC2)cc1 ; read-out: MIC ; result: 50 µM
COC1(OC)CCCCC2c3cccc(OC(C)=O)c3C21OC(C)=O ; read-out: MIC bound ; method: BACTEC ; strain: H37Rv ; result: >12.5 µg/mL
COc1cc(OC)c2c(c1)OC(c1ccc(O)cc1)CC2=O ; read-out: EC50 ; result: >12.5 µg/mL
O=C1Oc2ccccc2C(=O)Oc2ccccc2C(=O)Oc2ccccc2C(=O)Oc2ccccc21 ; read-out: MIC bound ; method: BACTEC ; strain: H37Rv ; result: >12.5 µg/mL
Nc1cc(S(=O)(=O)O)c(O)c2c1C(=O)c1c(O)c(S(=O)(=O)O)cc(N)c1C2=O ; read-out: MIC ; strain: H37Rv ; result: >100 µg/mL
C[C@@H]1CN(c2c(F)c(N)c3c(=O)c(C(=O)O)cn(C4CC4)c3c2F)C[C@H](C)N1 ; read-out: MIC ; strain: ATCC 35830 ; result: 0.03 µg/mL
CC(=O)Oc1cc(I)ccc1C(=O)O ; read-out: MIC ; strain: H37Rv ; result: >100 µg/mL
CCOc1nc(-c2ccccc2)cc(-c2ccc(N3CCOCC3)cc2)c1C#N ; read-out: MIC bound ; method: BACTEC ; strain: H37Rv ; result: >12.5 µg/mL
Fc1ccc(CCNCCNCCc2ccccc2F)cc1 ; read-out: MIC ; result: 25 µM
Br.N=C(N)SCCCSC(=N)N ; read-out: MIC ; strain: H37Rv ; result: >100 µg/mL
N/C(=N\Nc1c(O)[nH]c2ccccc12)N[N+](=O)[O-] ; read-out: MIC bound ; method: BACTEC ; strain: H37Rv ; result: >12.5 µg/mL
CCCCN(CCCC)Cc1cc(Nc2ccnc3cc(Cl)ccc23)ccc1O.Cl ; read-out: MIC ; strain: H37Rv ; result: >100 µg/mL
CCCCC(Nc1cc(NC(=O)OCC)nc(N)c1[N+](=O)[O-])C(C)O ; read-out: inhibition ; strain: H37Rv ; dose: 12.5 µg/mL ; result: 0%
Cc1ccc(NC(=O)CCl)cc1[N+](=O)[O-] ; read-out: MIC bound ; method: BACTEC ; strain: H37Rv ; result: >12.5 µg/mL
Nc1nc(=S)nc(N)[nH]1 ; read-out: MIC ; strain: H37Rv ; result: >100 µg/mL
O=C(NNC(=S)Nc1cccc(Cl)c1)c1ccncc1 ; read-out: inhibition ; method: resazurin ; strain: H37Rv ; dose: 6.25 µg/mL ; result: 96%
CCCCC(CC)CN1CN(CC(CC)CCCC)CC(C)(NCCNCc2cc(OC)c(OC)c(OC)c2)C1 ; read-out: MIC ; result: 12.5 µM
Oc1ccc(O)c(Br)c1 ; read-out: MIC ; strain: H37Rv ; result: 100 µg/mL

Repeating the final 7 entries:

structure	read-out	method	strain	dose	result
CCCCN(CCCC)Cc1cc(Nc2ccnc3cc(Cl)ccc23)ccc1O.Cl	MIC		H37Rv		>100 µg/mL
CCCCC(Nc1cc(NC(=O)OCC)nc(N)c1[N+](=O)[O-])C(C)O	inhibition		H37Rv	12.5 µg/mL	0%
Cc1ccc(NC(=O)CCl)cc1[N+](=O)[O-]	MIC bound	BACTEC	H37Rv		>12.5 µg/mL
Nc1nc(=S)nc(N)[nH]1	MIC		H37Rv		>100 µg/mL
O=C(NNC(=S)Nc1cccc(Cl)c1)c1ccncc1	inhibition	resazurin	H37Rv	6.25 µg/mL	96%
CCCCC(CC)CN1CN(CC(CC)CCCC)CC(C)(NCCNCc2cc(OC)c(OC)c(OC)c2)C1	MIC				12.5 µM
Oc1ccc(O)c(Br)c1	MIC		H37Rv		100 µg/mL

ECn is the concentration giving n% inhibition of infection, replication or growth. Percent inhibition refers to the dose given; in toxicity tests it is the harm to the cells. An empty or dashed field is not shown. Neighbouring rows are from separate reports.